Pooled drug test results. Numbers come from NIAID ChemDB, via PubChem.

Common to all: whole-cell or culture tests; organism: Mycobacterium tuberculosis

MIC50, MIC90 and the like: level of inhibition, or share of isolates inhibited. ECn: concentration that inhibits the pathogen or its effect by n%. Inhibition is in % at the dose shown (toxicity tests: loss of growth or viability). MIC bound: limit read from a one-dose screen. An empty or dashed field is not shown. Rows are shuffled and stem from different studies.

| SMILES | strain | read by | read-out | tested at | value |
|---|---|---|---|---|---|
| COc1ccc(CCNCCNC(C)c2cccc3ccccc23)cc1 |  |  | MIC |  | 50 µM |
| CN1C(=O)CCC1(O)c1ccccc1 | H37Rv |  | MIC |  | >100 µg/mL |
| COc1ccc(C(=O)/C=C/c2ccco2)c(O)c1 | H37Rv |  | inhibition | 12.5 µg/mL | 3% |
| CC#CC#C/C(=C/C=C/C(=O)OC)SC | H37Rv | BACTEC | MIC |  | ≥12.5 µg/mL |
| O=C(/C=C/c1cc2ccccc2[nH]1)c1ccncc1 | H37Rv |  | EC50 |  | >12.5 µg/mL |
| CCCCC(Nc1cc(NC(=O)OCC)nc(N)c1[N+](=O)[O-])C(C)O | H37Rv |  | EC50 |  | >12.5 µg/mL |
| CC(=O)CC(=O)Nc1cccc(C)n1 | H37Rv |  | MIC |  | >100 µg/mL |
| CCCSc1nn2cc(NC(=O)OC)nc2s1 | H37Rv | BACTEC | MIC bound |  | >12.5 µg/mL |
| C1N=NCN=N1 | H37Rv |  | MIC |  | >100 µg/mL |
| O=S1(=O)CS(=O)(=O)OCCO1 | H37Rv | BACTEC | inhibition | 12.5 µg/mL | 5% |
| CC(C)=C1CCC(C)CC1=O | H37Rv |  | MIC |  | >100 µg/mL |
| OC(c1cc2ccc(C(F)(F)F)cc2c2cc(C(F)(F)F)ccc12)C1CCCCN1 | H37Rv |  | MIC bound |  | <6.25 µg/mL |
| CC(C)c1ccc2c(c1)CC[C@H]1[C@](C)(CNCCNC3CCCC(C)C3C)CCC[C@]21C |  |  | MIC |  | 25 µM |
| CC1(C)[C@H]2CC[C@@H](CNCCN3CCc4c([nH]c5ccccc45)C3)[C@@H]1C2 |  |  | MIC |  | 50 µM |
| Cc1nnc2sc(N/N=C/c3ccccc3)nn12 | H37Rv | resazurin | MIC bound |  | >6.25 µg/mL |
| COc1ccc(OC)c(-c2nc3c(N(CCc4ccccc4)Cc4ccccc4)nc(NC(=O)O)cc3[nH]2)c1 | H37Rv |  | EC50 |  | <12.5 µg/mL |
| CN(C)N=Nc1ccc(C(=O)N/N=C/c2ccc([N+](=O)[O-])cc2)cc1 | H37Rv | BACTEC | inhibition | 12.5 µg/mL | 8% |
| CC[C@H]1OC(=O)[C@H](C)[C@@H](O[C@H]2C[C@@](C)(OC)[C@@H](O)[C@H](C)O2)[C@H](C)[C@@H](O[C@@H]2O[C@H](C)C[C@H](N(C)C)[C@H]2O)[C@](C)(OC)C[C@@H](C)C(=O)[C@H](C)[C@@H](O)[C@]1(C)O | ATCC 35828 |  | MBC |  | >8 µg/mL |
| CCN(CC)C(=S)S[Se](SC(=S)N(CC)CC)(SC(=S)N(CC)CC)SC(=S)N(CC)CC | INH-r |  | MIC |  | 0.8 µg/mL |
| Cc1c(Br)c(Br)c(O)c(Br)c1Br | H37Rv |  | MIC |  | >100 µg/mL |
| CC(=O)NNc1nc(C)c(C(=O)NNC(=O)C(=O)Nc2ccc(C)c(C)c2)s1 | H37Rv | BACTEC | inhibition | 12.5 µg/mL | 13% |
| C[C@@H]1[C@@H](NCCNC(c2ccccc2)c2ccccc2)C[C@H]2C[C@@H]1C2(C)C |  |  | MIC |  | 50 µM |
| CC[C@H]1OC(=O)[C@H](C)[C@@H](O[C@H]2C[C@@](C)(OC)[C@@H](O)[C@H](C)O2)[C@H](C)[C@@H](O[C@@H]2O[C@H](C)C[C@H](N(C)C)[C@H]2O)[C@](C)(O)C[C@@H](C)C(=O)[C@H](C)[C@@H](O)[C@]1(C)O | ATCC 35822 |  | MIC |  | >8 µg/mL |
| c1ccc2c(c1)nc1cc(NC3CCCCC3)c(=NC3CCCCC3)cc-1n2C1CCCCC1 | PZA-R |  | MIC |  | 3.1 µg/mL |
| NC[C@H]1O[C@H](O[C@H]2[C@H](O)[C@@H](O[C@H]3O[C@H](CO)[C@@H](O)[C@H](N)[C@H]3O)[C@H](N)C[C@@H]2N)[C@H](O)[C@@H](O)[C@@H]1O | TN2508 (001/16) |  | MIC |  | >256 µg/mL |
| O=C1CCCCCCCCCCCCCCO1 | H37Rv | BACTEC | inhibition | 12.5 µg/mL | 24% |
| Nc1ccc(C(=O)/C=C/c2ccccc2)cc1 | H37Rv |  | EC50 |  | >12.5 µg/mL |
| O=S(=O)(SC1=NCCN1)c1ccc2ccccc2c1 | H37Rv | resazurin | MIC bound |  | >6.25 µg/mL |
| CCOC(=O)Nc1cc2[nH]cnc2c(Cl)n1 | H37Rv |  | EC50 |  | >12.5 µg/mL |
| COC[C@H](NCCNC[C@]1(C)CCC[C@]2(C)c3ccc(C(C)C)cc3CC[C@@H]12)[C@@H](O)c1ccccc1 |  |  | MIC |  | 50 µM |
| CCOC(=O)CCCCCBr | H37Rv |  | MIC |  | 25 µg/mL |
| Nc1nnc2nc(CC(=O)c3ccc4ccccc4c3)c(=O)[nH]n12 | H37Rv | BACTEC | inhibition | 12.5 µg/mL | 8% |
| CCCCC(CC)CN1CN(CC(CC)CCCC)CC(C)(NCCN[C@H](CO)Cc2ccc(Cl)cc2)C1 |  |  | MIC |  | 12.5 µM |
| CCOC(=O)Nc1cc2c(ncn2/N=C/c2ccc(OC)cc2)c(N)n1 | H37Rv |  | EC50 |  | >12.5 µg/mL |
| CC1CCc2c(c3c(=O)[nH]c(=O)[nH]c3oc2=O)C1 | H37Rv | BACTEC | inhibition | 12.5 µg/mL | 17% |
| CC(=O)Nc1ccc(C(=O)O)c(O)c1 | H37Rv |  | MIC |  | 100 µg/mL |
| NC(=O)C1=C(C(=O)O)CCC1 | H37Rv | BACTEC | MIC bound |  | >12.5 µg/mL |
| CCOC(=O)Nc1cc2ncc(CNc3ccc(C(=O)OCC)cc3)nc2c(N)n1 | H37Rv |  | inhibition | 12.5 µg/mL | 0% |
| O=Cc1cn(CCCCCCCCn2cc(C=O)c3ccccc32)c2ccccc12 | H37Rv | BACTEC | MIC bound |  | >12.5 µg/mL |
| NCC[C@H](O)C(=O)N[C@@H]1C[C@H](N)[C@@H](O[C@H]2O[C@H](CN)[C@@H](O)[C@H](O)[C@H]2O)[C@H](O)[C@H]1O[C@H]1O[C@H](CO)[C@@H](O)[C@H](N)[C@H]1O | MDR2 | broth dilution / resazurin | MIC |  | 16 µg/mL |
| CC[C@H]1OC(=O)[C@H](C)[C@@H](O[C@H]2C[C@@](C)(OC)[C@@H](O)[C@H](C)O2)[C@H](C)[C@@H](O[C@@H]2O[C@H](C)C[C@H](N(C)C)[C@H]2O)[C@](C)(O)C[C@@H](C)CN(C)[C@H](C)[C@@H](O)[C@]1(C)O | Drug-resistant |  | MBC90 |  | >8 µg/mL |
| CO[C@H]1/C=C/O[C@@]2(C)Oc3c(C)c(O)c4c(O)c(c5c(c4c3C2=O)NC2(CCN(CC(C)C)CC2)N=5)=NC(=O)/C(C)=C\C=C\[C@H](C)[C@H](O)[C@@H](C)[C@@H](O)[C@@H](C)[C@H](OC(C)=O)[C@@H]1C | 3113 (rifampin-sensitive) |  | MIC |  | 0.05 µg/mL |
| CCCCOc1nc(N)nc(NC)n1 | H37Rv |  | MIC |  | 100 µg/mL |
| CCCCC(CC)CN1CN(CC(CC)CCCC)CC(C)(NCCNCCc2ccc(O)c(OC)c2)C1 |  |  | MIC |  | 12.5 µM |
| O=C1c2ccccc2-c2c1c1ccccc1c(=O)n2-c1ccccc1 | H37Rv | resazurin | MIC bound |  | >6.25 µg/mL |
| OCCN1CCN(CCO)C1=S | H37Rv |  | MIC |  | >100 µg/mL |
| C[C@H]1COc2c(N3CCN(C)CC3)c(F)cc3c(=O)c(C(=O)O)cn1c23 | Drug-resistant |  | MIC50 |  | 0.25 µg/mL |
| O=C(/C=C/c1ccccc1)c1cc(I)ccc1O | H37Rv |  | EC50 |  | ~12.5 µg/mL |
| CO[C@H]1/C=C/O[C@@]2(C)Oc3c(C)c(O)c4c(=O)c(c5oc6cc(N7CCN(C(C)C)CC7)cc(=O)c6nc5c4c3=C2O)NC(=O)/C(C)=C\C=C\[C@H](C)[C@H](O)[C@@H](C)[C@@H](O)[C@@H](C)[C@H](OC(C)=O)[C@@H]1C | 29 (rifampin-resistant) |  | MBC |  | 0.2 µg/mL |
| CNc1cc2oc(=O)cc(C)c2cc1C | H37Rv | BACTEC | MIC bound |  | >12.5 µg/mL |
| C/C(=N\O)C(=O)c1ccccc1 | H37Rv |  | MIC |  | 100 µg/mL |
| CC(C)=CCC/C(C)=C/CNCCNCCNc1ccccc1 |  |  | MIC |  | 50 µM |
| c1ccc(N=C(Nc2ccccc2)Nc2ccccc2)cc1 | H37Rv |  | MIC |  | 100 µg/mL |
| C1COC(CNCCNCC23CC4CC(CC(C4)C2)C3)C1 |  |  | MIC |  | 50 µM |
| CCOC(=O)Nc1cc(N)c2c(n1)OCC(c1ccc(OC)c(OC)c1)=N2 | H37Rv |  | EC50 |  | >12.5 µg/mL |
| CCC(C)C(NC(=O)C1CCCN1C(=O)OCc1ccccc1)C(=O)O | H37Rv | BACTEC | MIC bound |  | >12.5 µg/mL |
| OCCCCCNCCNCc1ccccc1Sc1ccccc1CO |  |  | MIC |  | 12.5 µM |
| CC(CS(C)(=O)=O)S(=O)[O-].[Na+] | H37Rv |  | MIC |  | >100 µg/mL |
| CN(C)CCSCC(=O)N1c2ccccc2Sc2ccccc21.Cl | H37Rv | BACTEC | MIC bound |  | >12.5 µg/mL |
| CCCCCCCCCCCNCCNCCCOCC |  |  | MIC |  | 25 µM |
| [Na+].[O-]c1ccccn1 | H37Rv |  | MIC |  | >100 µg/mL |
| O=c1cc(-c2ccc(O)c(-c3c(O)cc(O)c4c(=O)cc(-c5ccc(O)cc5)oc34)c2)oc2cc(O)cc(O)c12 |  |  | EC50 |  | >12.5 µg/mL |
| COC(=O)c1ccccc1 | H37Rv |  | MIC |  | >100 µg/mL |
| COc1ccccc1CCNCCNC12CC3CC(CC(C3)C1)C2 |  |  | MIC |  | 25 µM |
| CN1CCCC(COC(=O)c2ccc([N+](=O)[O-])cc2)C1 | H37Rv |  | MIC |  | 100 µg/mL |
| COC(=O)C(=O)C(C(=O)C(=O)Nc1ccccc1C(=O)OC)c1nc2ccc(C(=O)c3ccccc3)cc2[nH]c1=O | H37Rv | BACTEC | MIC bound |  | >12.5 µg/mL |
| O=[N+]([O-])c1ccc2c(c1)S(=O)(=O)c1cc([N+](=O)[O-])ccc1O2 | H37Rv |  | MIC |  | 100 µg/mL |
| COc1cc(O)c(C(=O)/C=C/c2cc(OC)c(OC)c(OC)c2)c(O)c1 |  |  | inhibition | 12.5 µg/mL | 0% |
| O=C(CCl)Nc1cc(S(=O)(=O)O)cc2cc(S(=O)(=O)[O-])cc(O)c12.[Na+] | H37Rv |  | MIC |  | >100 µg/mL |
| CC(CNCCc1ccc(O)cc1)NC[C@@H]1CC[C@H]2C[C@@H]1C2(C)C |  |  | MIC |  | 25 µM |
| O=c1cc[nH]cc1[N+](=O)[O-] | H37Rv |  | MIC |  | 100 µg/mL |
| CCCCCCCCCCCNCCNCCF |  |  | MIC |  | 25 µM |
| CC(=O)NC(N)=O | H37Rv |  | MIC |  | >100 µg/mL |
| CCCCC(CC)CN1CN(CC(CC)CCCC)CC(C)(NCCNC/C=C(\C)CCC=C(C)C)C1 |  |  | MIC |  | 50 µM |

Repeating the final 9 entries:

| SMILES | strain | read by | read-out | tested at | value |
|---|---|---|---|---|---|
| COC(=O)C(=O)C(C(=O)C(=O)Nc1ccccc1C(=O)OC)c1nc2ccc(C(=O)c3ccccc3)cc2[nH]c1=O | H37Rv | BACTEC | MIC bound |  | >12.5 µg/mL |
| O=[N+]([O-])c1ccc2c(c1)S(=O)(=O)c1cc([N+](=O)[O-])ccc1O2 | H37Rv |  | MIC |  | 100 µg/mL |
| COc1cc(O)c(C(=O)/C=C/c2cc(OC)c(OC)c(OC)c2)c(O)c1 |  |  | inhibition | 12.5 µg/mL | 0% |
| O=C(CCl)Nc1cc(S(=O)(=O)O)cc2cc(S(=O)(=O)[O-])cc(O)c12.[Na+] | H37Rv |  | MIC |  | >100 µg/mL |
| CC(CNCCc1ccc(O)cc1)NC[C@@H]1CC[C@H]2C[C@@H]1C2(C)C |  |  | MIC |  | 25 µM |
| O=c1cc[nH]cc1[N+](=O)[O-] | H37Rv |  | MIC |  | 100 µg/mL |
| CCCCCCCCCCCNCCNCCF |  |  | MIC |  | 25 µM |
| CC(=O)NC(N)=O | H37Rv |  | MIC |  | >100 µg/mL |
| CCCCC(CC)CN1CN(CC(CC)CCCC)CC(C)(NCCNC/C=C(\C)CCC=C(C)C)C1 |  |  | MIC |  | 50 µM |